Measured values from several laboratories, pooled; numbers as filed in NIAID ChemDB.

All rows: tests in culture; agent: Vaccinia virus; measure: EC50

ECn is the concentration giving n% inhibition of infection, replication or growth. An empty or dashed field is not shown. Lines come from different laboratories, so protocols vary.

SMILES	cells	strain	result
C=C(Cl)c1cn([C@H]2C[C@H](O)[C@@H](CO)O2)c(=O)[nH]c1=O	PRK		0.7 µg/mL
O=c1[nH]cnc2c1ncn2CC(CO)OCP(=O)(O)O	Primary rabbit kidney cells		>400 µg/mL
O=c1[nH]c(=O)n([C@H]2C[C@H](O)[C@@H](CO)O2)cc1I	PRK		0.3 µg/mL
Nc1ccn(C[C@@H](CO)OCP(=O)(O)O)c(=O)n1	HFF	IHD	13.4 µM
Nc1ccn(C[C@@H](CO)OCP(=O)(O)O)c(=O)n1	BSC		5 µg/mL
CCCCCCCCCCCCCCCCCCOCCOP1(=O)CO[C@@H](Cn2ccc(N)nc2=O)CO1	HFF	Copenhagen	1.1 µM
NC(=O)c1csc([C@@H]2O[C@H](CO)[C@@H](O)[C@H]2O)n1	HeLa	Elstree	60 µg/mL
Nc1nc2c(ncn2COCCO)c(=O)[nH]1	VERO		>144 µM
Nc1nc2c(ncn2CCOCP(=O)(O)O)c(=O)[nH]1	Primary rabbit kidney cells		10 µg/mL
CCCCCCCCCCCCCCCCCCOCCOP(=O)(O)CO[C@H](CO)Cn1ccc(N)nc1=O	HFF	IHD	0.1 µM
N#CSc1cn([C@H]2C[C@H](O)[C@@H](CO)O2)c(=O)[nH]c1=O	PRK		4 µg/mL
Nc1nc(N)c2ncn(CC(CO)OCP(=O)(O)O)c2n1	Primary rabbit kidney cells		2 µg/mL
C#Cc1c(C(N)=O)ncn1[C@@H]1O[C@H](CO)[C@@H](O)[C@H]1O	PRK		0.2 µg/mL
Nc1ccn(C[C@H]2COP(=O)(O)CO2)c(=O)n1	VERO		90 µM
O=c1[nH]cnc2c1ncn2CCOCP(=O)(O)O	Primary rabbit kidney cells		>400 µg/mL

The last 2 rows once more:

SMILES | cells | strain | result
Nc1ccn(C[C@H]2COP(=O)(O)CO2)c(=O)n1 | VERO |  | 90 µM
O=c1[nH]cnc2c1ncn2CCOCP(=O)(O)O | Primary rabbit kidney cells |  | >400 µg/mL